Laboratory results: PubChem BioAssay AID504761 (Drosophila RNAi Screening Center, 2011)
Screen: 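Fly genes whose silencing reduces dengue virus type 2 infection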 (primary screen). Cells: D.Mel-2 cells from Drosophila. Reagent: long dsRNA against Drosophila genes. Conditions: infection with dengue virus type 2; dose and infection time not stated. Detection: 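Per well on two replicate plates, imaging gave the percent of cells positive for viral envelope protein, ranked by infection, and a nuclear count of cells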. Reading the numbers: infection score: higher = more virus-infected cells; cell count: higher = more cells in the well. Call rule: 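Very low infection ranking in both replicate wells (chance probability at most 0.065), then a retest showing infection dropped 1.5-fold or more at p below 0.05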. Meaning of the calls: active = confirmed: knock-down lowers infection; inactive = not picked or not confirmed.
In all, the deposit lists about 22,000 reagents; this is a random part of those with a known target gene and a result. Over the whole deposit, 116 (0.52%) are marked active. 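Calls depend on retest data that are not deposited; infection was ranked per plate without normalising between plates; the unit of the infection score is not given.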 Raw values vary from plate to plate and are shown uncorrected. Not given: the amount of reagent, the time to read-out.

no.	gene	DRSC id	infection score, replicate 1	infection score, replicate 2	cell count, replicate 1	cell count, replicate 2	Call
1	Gga	DRSC18260	2.74	2	6428	6494	inactive
2	Gga	DRSC27761	3.02	4.34	5830	6292	inactive
3	CG15653	DRSC04244	15.2	25.1	5899	6120	inactive
4	MCU (Mitochondrial calcium uniporter)	DRSC10339	1.36	6.89	6233	6151	inactive
5	CG17999	DRSC04300	7.34	18.7	6021	5688	inactive
6	CG32452	DRSC11581	0.73	2.84	6142	6487	inactive
7	CG32452	DRSC22250	1.82	6.21	6085	6711	inactive
8	CG32452	DRSC26705	1.02	11.2	6173	5831	inactive
9	Orc1 (Origin recognition complex subunit 1)	DRSC07496	0.8	1.62	6415	6237	inactive
10	PolH (DNA polymerase eta)	DRSC11800	4.74	26.9	6753	5131	inactive
11	Acbp4 (Acyl-CoA binding protein 4)	DRSC11023	5.43	0.85	5579	5973	inactive
12	Acbp4 (Acyl-CoA binding protein 4)	DRSC28938			371	383	inactive
13	Cdep (Chondrocyte-derived ezrin-like domain containing protein)	DRSC12028	1.31	2.03	5666	6245	inactive
14	Cdep (Chondrocyte-derived ezrin-like domain containing protein)	DRSC12220	14.5	6.72	4787	6344	inactive
15	Cdep (Chondrocyte-derived ezrin-like domain containing protein)	DRSC12291	0.42	2.22	6458	6879	inactive
16	daed (daedalus)	DRSC00299	7.59	7.28	5833	5635	inactive
17	CG17028	DRSC10239	2.76	3.29	6314	6147	inactive
18	CG17028	DRSC29850	12.5	15.1	5859	6276	inactive
19	Ugt317A1 (UDP-glycosyltransferase family 317 member A1)	DRSC04470	23.5	35.9	5644	5507	inactive
20	CG33144	DRSC07024	7.8	14.7	6849	6914	inactive
21	CG33144	DRSC25033	2.74	3.3	6706	6510	inactive
22	krimp (krimper)	DRSC06578	13	3.6	6603	6519	inactive
23	CG30472	DRSC22245	1.45	3.27	5859	6430	inactive
24	CG30472	DRSC26789	8.58	5.82	6762	7023	inactive
25	CG13364	DRSC17898	10.2	1.21	3783	7166	inactive
26	CG13364	DRSC21263	1.34	0.86	5980	6164	inactive
27	CG13364	DRSC26743	5.04	19.4	5828	5162	inactive
28	SamDC (S-adenosylmethionine decarboxylase)	DRSC03429	4.07	9.45	6366	6797	inactive
29	Sec6 (Secretory 6)	DRSC06932	4.31	8.93	6384	4848	inactive
30	ninaC (neither inactivation nor afterpotential C)	DRSC03579	13.8	1.66	6145	6392	inactive
31	ninaC (neither inactivation nor afterpotential C)	DRSC29875	11	10.2	5301	5854	inactive
32	CG14013	DRSC02344	4.52	7	5753	6812	inactive
33	Bhmt (Betaine-homocysteine S-methyltransferase)	DRSC02079	5.65	4.42	5880	6382	inactive
34	Bhmt (Betaine-homocysteine S-methyltransferase)	DRSC25655	3.11	5.96	6304	6074	inactive
35	CG10257	DRSC05985	5.06	15.5	6368	6173	inactive
36	GstE4 (Glutathione S transferase E4)	DRSC06674	12.5	16.3	6704	3717	inactive
37	GstE4 (Glutathione S transferase E4)	DRSC24213	3.03	2.33	6467	5829	inactive
38	beat-IIIa (beaten path IIIa)	DRSC01577	5.88	5.42	6312	6437	inactive
39	beat-IIIa (beaten path IIIa)	DRSC02178	1.35	3.26	6616	6541	inactive
40	CG6712	DRSC02981	0.88	1.54	6488	6775	inactive
41	CG6712	DRSC21690	0.82	2.24	5701	5676	inactive
42	Gtpx	DRSC08221	4.67	9.34	6573	4862	inactive
43	Gtpx	DRSC22117	2.24	6.29	6570	7165	inactive
44	CG13894	DRSC23205	4.24	4.7	6786	6580	inactive
45	CG13894	DRSC29274	23.7	23.6	3974	5757	inactive
46	CG6508	DRSC02963	3.08	3.48	6813	6863	inactive
47	sxe2 (sex-specific enzyme 2)	DRSC15692	9.38	13.6	6570	6981	inactive
48	CG16799	DRSC06626	3.22	2.08	6024	6397	inactive
49	CG16799	DRSC21553	0.99	11.6	5882	6387	inactive
50	CG6357	DRSC06979	17	8.04	5448	3034	inactive
51	OtopLa (Otopetrin-like a)	DRSC18133	3.69	2.45	6610	6413	inactive
52	OtopLa (Otopetrin-like a)	DRSC23226	1.81	7.35	6645	6610	inactive
53	OtopLa (Otopetrin-like a)	DRSC29861	13.1	10.2	3879	5950	inactive
54	Irk3 (Inwardly rectifying potassium channel 3)	DRSC02047	12.2	11.2	4993	5173	inactive
55	CG3436	DRSC00605	12.2	13.3	4913	4489	inactive
56	Nplp3 (Neuropeptide-like precursor 3)	DRSC25046	1.95	1.19	6197	6407	inactive
57	CG33543	DRSC00384	32.7	30.1	5620	6571	inactive
58	CG33543	DRSC00385	10.6	14.2	6483	6719	inactive

Copied from the list:
OtopLa (Otopetrin-like a) [DRSC29861], Call → inactive
Result of CG6712 [DRSC02981] under “cell count, replicate 1”: 6488
SamDC (S-adenosylmethionine decarboxylase) [DRSC03429], cell count, replicate 1 → 6366
Result of CG17999 [DRSC04300] under “cell count, replicate 2”: 5688
